Measured values from several laboratories, pooled; numbers as filed in NIAID ChemDB.

Shared fields: whole-cell or culture tests; species: HIV-1; cells: MT-2; endpoint: EC50

An empty or dashed field is not shown. Rows are shuffled and stem from different studies. ECn is the concentration giving n% inhibition of infection, replication or growth.

N#CN=C1N(Cc2cccc(O)c2)[C@H](Cc2ccccc2)[C@H](O)[C@@H](O)[C@@H](Cc2ccccc2)N1Cc1cccc(O)c1 ; strain: RF ; read by: hybridisation ; value: <0.13 µM
Nc1ccn([C@H]2CC[C@@H](CO)O2)c(=O)n1 ; strain: IIIB ; read by: cytopathic effect / MTT ; value: 0.6 µM
Nc1nc(N)c2ncn([C@@H]3O[C@H](OCP(=O)(O)O)C=C3F)c2n1 ; strain: IIIB ; read by: ATP ; value: >300 µM
N#Cc1ccc(CN2C(=O)N(Cc3ccc(C#N)cc3)[C@H](Cc3ccccc3)[C@H](O)[C@@H](O)[C@H]2Cc2ccccc2)cc1 ; strain: RF ; read by: hybridisation ; value: <5.8 µM
Cc1cn([C@H]2C=C[C@@H](CO)O2)c(=O)[nH]c1=O ; strain: IIIB ; read by: ATP ; value: 4.8 µM
C=CCN1C(=O)N(CC=C)[C@H](Cc2ccccc2)[C@H](O)[C@@H](O)[C@H]1Cc1ccccc1 ; strain: RF ; read by: hybridisation ; value: <4.7 µM
COc1ncc(OC)c2c(C(=O)C(=O)N3CCN(C(=O)c4ccccc4)CC3)c[nH]c12 ; read by: p24 / ELISA ; value: 0.0041 µM
N#CN=C1N(Cc2cccc(C#N)c2)[C@H](Cc2ccccc2)[C@H](O)[C@@H](O)[C@@H](Cc2ccccc2)N1Cc1cccc(C#N)c1 ; strain: RF ; read by: hybridisation ; value: <3.1 µM
Cc1c(O)cccc1C(=O)N[C@@H](CSc1ccccc1)[C@H](O)CN1C[C@H]2CCCC[C@H]2C[C@H]1C(=O)NC(C)(C)CO ; strain: IIIB ; read by: cytopathic effect / MTT ; value: 0.0856 µM
COC(=O)c1ccc(F)c2c(C(=O)C(=O)N3CCN(C(=O)c4ccccc4)CC3)c[nH]c12 ; strain: 91US005 ; read by: p24 / ELISA / entry ; value: 0.0004 µM
CCOP(=O)(COc1ccc(C[C@H](NC(=O)O[C@H]2CO[C@H]3OCC[C@H]32)[C@H](O)CN(CC(C)C)S(=O)(=O)c2ccc(OC)cc2)cc1)OCC ; strain: IIIB ; changes: I401T R409K D437N ; read by: p24 / ELISA ; value: 0.008 µM
O=C1N(Cc2ccccc2)[C@H](Cc2ccccc2)[C@H](O)[C@@H](O)[C@@H](Cc2ccccc2)N1Cc1ccccc1 ; strain: RF ; read by: hybridisation ; value: <0.83 µM
Nc1nc2c(ncn2[C@@H]2O[C@H](OCP(=O)(O)O)C=C2F)c(=O)[nH]1 ; strain: IIIB ; read by: ATP ; value: 17.4 µM
N#CN=C1N(Cc2ccc(C#N)cc2)[C@H](Cc2ccccc2)[C@H](O)[C@@H](O)[C@@H](Cc2ccccc2)N1Cc1ccc(C#N)cc1 ; strain: RF ; read by: hybridisation ; value: <7.7 µM
Nc1ncnc2c1ncn2C[C@@H](CF)OCP(=O)(O)O ; strain: IIIB ; value: >7.04 µM
Cc1ccc(S(=O)(=O)N(CC(C)C)C[C@@H](O)[C@H](Cc2ccccc2)NC(=O)O[C@H]2CO[C@H]3OCC[C@H]32)cc1 ; strain: IIIB ; changes: 8374-P62 GS-8374-resistant ; read by: ATP ; value: 0.0095 µM
O=C1N(CC2CCCC2)[C@H](Cc2ccccc2)[C@H](O)[C@@H](O)[C@@H](Cc2ccccc2)N1CC1CCCC1 ; strain: RF ; read by: hybridisation ; value: <1.7 µM
O=C(C(=O)N1CCN(C(=O)c2ccccc2)CC1)c1c[nH]c2c(-n3ccnn3)ncc(F)c12 ; read by: p24 / ELISA ; value: 0.0059 µM
Nc1ccn([C@H]2CC[C@@H](CO)O2)c(=O)n1 ; strain: IIIB ; read by: cytopathic effect / MTT ; value: ~0.2 µM
N#CN=C1N(Cc2ccc([N+](=O)[O-])cc2)[C@H](Cc2ccccc2)[C@H](O)[C@@H](O)[C@@H](Cc2ccccc2)N1Cc1ccc([N+](=O)[O-])cc1 ; strain: RF ; read by: hybridisation ; value: <19.3 µM
Cc1cn([C@H]2C[C@H](N=[N+]=[N-])[C@@H](CO)O2)c(=O)[nH]c1=O ; strain: IIIB ; changes: 8374-P36 GS-8374-resistant ; read by: ATP ; value: 0.138 µM
COC(=O)N[C@H](C(=O)N[C@@H](Cc1ccccc1)[C@@H](O)CN(Cc1ccc(-c2ccccn2)cc1)NC(=O)[C@@H](NC(=O)OC)C(C)(C)C)C(C)(C)C ; strain: LAI ; read by: MTT ; value: 0.0048 µM
Nc1cccc(CN2C(=O)N(Cc3cccc(N)c3)[C@H](Cc3ccccc3)[C@H](O)[C@@H](O)[C@H]2Cc2ccccc2)c1 ; strain: THAI (PR-D60E I84V) ; changes: PR-D60E I84V ; read by: virus yield ; value: <1.26 µM
CC(C)c1cc2c(c(O)c1O)[C@@]1(C(=O)O)CCCC(C)(C)C1CC2 ; strain: LAI ; value: 0.047 µM
Nc1ncnc2c1ncn2[C@@H]1C=C[C@H](OCP(=O)(O)O)O1 ; strain: IIIB ; read by: ATP ; value: 5.9 µM
CC(C)(C)NC(=O)[C@@H]1C[C@@H]2CCCC[C@@H]2CN1C[C@@H](OC(=O)C(CS)NC(=O)CCONC(=O)CCCCC1SCC2NC(=O)NC21)[C@H](Cc1ccccc1)NC(=O)[C@H](CC(N)=O)NC(=O)c1ccc2ccccc2n1 ; strain: LAV/LAI ; read by: cytopathic effect / MTT ; value: 0.125 µM
N#CN=C1N(Cc2ccc(N)cc2)[C@H](Cc2ccccc2)[C@H](O)[C@@H](O)[C@@H](Cc2ccccc2)N1Cc1ccc(N)cc1 ; strain: RF ; read by: hybridisation ; value: <2.3 µM
C[C@H](Cn1cnc2c(N)ncnc21)OCP(=O)(O)O ; strain: IIIB ; read by: ATP ; value: 3.6 µM
Nc1nc2c(ncn2[C@H]2CO[C@@H](CO)O2)c(=O)[nH]1 ; strain: LAI ; read by: cytopathic effect / XTT ; value: 3.4 µM
CC(C)(C)OC(=O)N[C@@H](Cc1ccccc1)[C@H](O)CNC[C@@H](O)[C@H](Cc1ccc(OCC(=O)N2CCOCC2)cc1)NC(=O)OC(C)(C)C ; strain: NL4-3 ; changes: PR-V82A ; read by: p24 ; value: 0.13 µM
Nc1nc(=O)n([C@@H]2C=C[C@H](CO)O2)cc1F ; strain: IIIB ; read by: cytopathic effect / MTT ; value: 0.09 µM
O=c1[nH]cnc2c1ncn2[C@H]1CC[C@@H](CO)O1 ; strain: LAI ; value: 4.3 µM

The first 4 rows once more:

SMILES,strain,changes,read by,value
N#CN=C1N(Cc2cccc(O)c2)[C@H](Cc2ccccc2)[C@H](O)[C@@H](O)[C@@H](Cc2ccccc2)N1Cc1cccc(O)c1,RF,-,hybridisation,<0.13 µM
Nc1ccn([C@H]2CC[C@@H](CO)O2)c(=O)n1,IIIB,-,cytopathic effect / MTT,0.6 µM
Nc1nc(N)c2ncn([C@@H]3O[C@H](OCP(=O)(O)O)C=C3F)c2n1,IIIB,-,ATP,>300 µM
N#Cc1ccc(CN2C(=O)N(Cc3ccc(C#N)cc3)[C@H](Cc3ccccc3)[C@H](O)[C@@H](O)[C@H]2Cc2ccccc2)cc1,RF,-,hybridisation,<5.8 µM